Where two headings read alike, the source gives them in different places.
What was measured:
human IgG (human) [1] = assay: BLI Octet, construct on Ni-NTA sensor, hIgG in solution
human IgG (human) [2] = assay: BLI (Octet), gEgI on Ni-NTA sensor, hIgG in solution
human IgG (human) [3] = assay: as above; remark: listed apart in the source

Substance | kon (human IgG (human) [1]) [M⁻¹ s⁻¹] | Kd (human IgG (human) [2]) [nM] | Response (human IgG (human) [2]) [nm] | koff (human IgG (human) [2]) [s⁻¹] | Kd (human IgG (human) [3]) [nM] | Response (human IgG (human) [3]) [nm]
Non mutated HSV2 gEgI (HRV4) (from UniProt P89475 21-416; P06764 21-256) (receptor) | 16300 | – | – | – | – | –
Non mutated gEgI (HRV4) (from UniProt P89475 21-416; P06764 21-256) (receptor) | – | 129 | 0.899 | 0.00206 | 262 | 0.732

— patent US20220273789A1
